Measured values reported in patent US20250195682A1, “IMPROVED CELL-TARGETING BINDING MOLECULE” (priority 2018, published 2025).

Tests used:
SK-BR-3 cells (HER2++) = test: Cell viability (MTS) assay, SK-BR-3 cells; format: cell-based, human; settings: substance alone (control)
[1] = test system: A431 tumor (human epidermal carcinoma xenograft); test: A431 xenograft mouse tumor model, tumor volume; format: in vivo, Balb/c nude mice
Description: Female Balb/c nude mice were injected subcutaneously with a suspension of human A431 tumor cells. Under the skin of the mice, a human epidermal carcinoma developed in the xenograft animal tumor model. After injection of the tumor cells, the xenograft tumor was allowed to develop to a size of approximately 170-180 mm^3. The A431 tumor cells have the following characteristics: high EGFR expressors, medium CD71 expressors, low HER2 expressors.
In Table A, the results of the treatment of control mice and tumor-bearing mice are presented. Tumor-bearing mice were treated with the indicated antibodies directed to either human Her2/neu, human EGFR, or human CD71, which are cell-surface receptors on the xenograft tumor. Cetuximab was covalently conjugated with saponin SO1861. […] The ADCs trastuzumab-saporin (covalent conjugate) and anti-0071 mAb (OKT-9, IgG)—saporin (covalent conjugate) were tested for their tumor-attacking efficacy in the mice, measured as tumor volume in time after start of the treatment with the ADCs. The dose of the ADCs was sub-optimal in the tumor model. […]
The mouse study was performed at CrownBio (China) according to standard protocols and procedures. […] Tumor volume was monitored and tumor samples were collected for gene silencing analysis (see below)

[2] = test system: MDA-MB-468 cells (HER2−/EGFR++); test: Cell viability (MTS) assay, MDA-MB-468 cells; format: cell-based, human; settings: for cell killing activity: substance alone

## trastuzumab-(L-SO1861)^3,8: trastuzumab with labile conjugated SO1861, DAR 3,8
SK-BR-3 cells (HER2++)
  cell killing activity: not observed

## Cetuximab-SO1861 (covalent conjugate): saponin-EMCH covalently coupled to reduced cysteines of Cetuximab
[1]; Table A
  outcome (death/euthanasia or survival): death/euthanasia
[1]; sub-optimal dose of the ADCs, start approximately 170-180 mm^3
  tumor size (volume): 2000 mm^3

## cetuximab-Cys-(dendron(-L-SO1861)^4)^3,9: Dendron(-L-SO1861)^4 conjugated to cetuximab via cysteine residues, DAR3,9
[2]; + 10 pM cetuximab-saporin, read-out: IC50 cell killing
  IC50: 0.4 nM
[2]
  cell killing activity: not induced
[2]; listed as Cetuximab-Cys-(dendron(-L-SO1861)^4)^3,9
  cell killing activity: could not be induced
